Measured values taken from paper PMC6010091, “Inhibition of the β-carbonic anhydrase from the dandruff-producing fungus Malassezia globosa with monothiocarbamates” (Journal of Enzyme Inhibition and Medicinal Chemistry, 2017).

Amino acid sequences for entries named in this document (tags omitted). Residues count along the entry.
UniProt A8Q1N3, 1-241: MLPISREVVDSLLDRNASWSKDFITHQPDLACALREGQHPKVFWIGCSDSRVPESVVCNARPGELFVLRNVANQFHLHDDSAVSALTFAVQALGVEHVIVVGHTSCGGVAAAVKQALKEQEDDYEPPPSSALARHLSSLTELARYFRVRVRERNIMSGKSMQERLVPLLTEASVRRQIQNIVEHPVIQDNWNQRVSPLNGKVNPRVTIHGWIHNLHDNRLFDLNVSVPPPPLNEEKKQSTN

Target: MgCA (Malassezia globosa, UniProt A8Q1N3)
Experiment: stopped-flow CO2 hydration assay, Cheng-Prusoff
Assay type: biochemical
Settings: read-out: KI^a / MgCA; pH 8.3, 10-20 mM TRIS, 20 mM NaBF4, 15 min preincubation at room temperature; tested form: Na salt

| SMILES | Ki |
| --- | --- |
| COc1ccc(CCNC(=O)S)cc1OC | 14.1 µM |
| CN1CCN(NC(=O)S)CC1 | 7.81 µM |
